A mixed list of measured activities; the numbers were collected in NIAID ChemDB.

Common to all: toxicity to cultured cells; cells: VERO; measure: CC50

CCn is the concentration with n% toxicity to the cells. An empty or dashed field is not shown. Conditions beyond the fields shown may differ between rows.

SMILES	read by	result
CSc1nsc(-c2cccs2)c1C#N	-	6 µM
Nc1ccn([C@H]2S[C@@H](CO)C=C2F)c(=O)n1	-	>100 µM
C=CCc1ccc(O)c(OC)c1	-	250 µg/mL
C=C[C@]1(C)C[C@@H](OC(=O)CSC(C)(C)CNC(=O)[C@H](N)CC(C)C)[C@]2(C)[C@H](C)CC[C@]3(CC/C(=N\OC)[C@H]32)[C@@H](C)[C@@H]1O	MTT	3.13 µg/mL
O=C(O)c1c2n(c3cc(F)c(N4CCC(O)(c5ccc(Cl)cc5)CC4)cc3c1=O)CS2	MTT	135.6 µM
Nc1ccn([C@H]2C=C(F)[C@@H](CO)O2)c(=O)n1	-	>100 µM
O=C(O)c1c2n(c3cc([N+](=O)[O-])c(N4CCN(Cc5ccc6c(c5)OCO6)CC4)cc3c1=O)CS2	MTT	126 µM
Nc1ncnc2c1ncn2[C@H]1C[C@@]12C[C@H]2CO	-	>100 µM
C=C[C@]1(C)C[C@@H](OC(=O)CSC(C)(C)CNC[C@H](N)C(C)C)[C@]2(C)[C@H](C)CC[C@]3(CCC(O)[C@H]32)[C@@H](C)[C@@H]1O	MTT	45.3 µg/mL
Nc1ncnc2c1nnn2[C@H]1C[C@H](O)[C@@H](CO)O1	trypan blue	>396 µM
Nc1ccn(CC[C@@H](CO)OCP(=O)(O)O)c(=O)n1	-	>100 µg/mL
Nc1ncnc2c1ncn2[C@H]1C[C@@]12C[C@@H]2CO	-	>100 µM
c1c[nH]c2cc3ncnc3cc2c1	MTT	>100 µM
NC(=O)CCN(CCC(N)=O)S(=O)(=O)c1cccc(Nc2nc(Nc3cccc(S(=O)(=O)N(CCC(N)=O)CCC(N)=O)c3)nc(Nc3ccc(-c4ccc(Nc5nc(Nc6cccc(S(=O)(=O)N(CCC(N)=O)CCC(N)=O)c6)nc(Nc6cccc(S(=O)(=O)N(CCC(N)=O)CCC(N)=O)c6)n5)cc4S(=O)(=O)O)c(S(=O)(=O)O)c3)n2)c1	-	375 µg/mL
O=C(O)c1c2n(c3cc(F)c(N4CCSCC4)cc3c1=O)CS2	MTT	177 µM
CSc1nsc(-c2cc[n+](C)cc2)c1C#N	-	1000 µM
C=C[C@]1(C)C[C@@H](OC(=O)CSC(C)(C)CNC(=O)[C@H](N)CC(C)C)[C@]2(C)[C@H](C)CC[C@]3(CCC(=O)[C@H]32)[C@@H](C)[C@@H]1O	MTT	13.96 µg/mL
CSc1nsc(-c2ccccc2)c1C#N	MTT	4.64 µg/mL
CC(C)(C)NC(=O)C1c2ccccc2CCN1c1cc2c(=O)c(C(=O)O)c3n(c2cc1[N+](=O)[O-])CS3	MTT	61.44 µM
Nc1ccn(C[C@@H](CO)OCP(=O)(O)O)c(=O)n1	-	100 µg/mL
CC[C@]1(C)C[C@@H](OC(=O)CSC(C)(C)CNC(=O)[C@H](N)CC(C)C)[C@]2(C)[C@H](C)CC[C@]3(CCC(O)[C@H]32)[C@@H](C)[C@@H]1O	MTT	10.45 µg/mL
Nc1ncnc2c1ncn2[C@H]1C[C@]12C[C@H]2CO	-	>100 µM
O=C(Cn1nnc2cc3cccnc3c(Cl)c21)Cn1nnc2cc3cccnc3c(Cl)c21	MTT	>100 µM
Nc1ncnc2c1ncn2[C@H]1C[C@]12C[C@@H]2CO	-	89 µM
CC(C)(C)NC(=O)C1c2ccccc2CCN1c1cc2c(=O)c(C(=O)O)c3n(c2cc1F)CS3	MTT	130 µM
Nc1nccc2nnn([C@@H]3O[C@H](CO)[C@@H](O)[C@H]3O)c12	trypan blue	>398 µM
CSc1nsc(-c2ccc(Cl)cc2Cl)c1C#N	-	8 µM
OC[C@H]1O[C@@H](n2nc3ccnc(Cl)c3n2)[C@H](O)[C@@H]1O	trypan blue	>398 µM
Nc1ncnc2c1ncn2CC[C@@H](CO)OCP(=O)(O)O	-	>100 µg/mL
CC(=O)OC[C@H]1O[C@H](O[C@H]2O[C@@H](COC(=O)/C=C/c3ccccc3)[C@H](O)C2(COC(C)=O)OC(=O)/C=C/c2ccccc2)[C@H](OC(C)=O)[C@@H](O)[C@@H]1OC(C)=O	-	>100 µg/mL
CC1(C)OC2C(O1)[C@@H](COS(=O)(=O)NC(=O)OC1CCCCC1)O[C@H]2n1ccc(=O)[nH]c1=O	-	619 µg/mL
O=C(O)c1cn2c(n1)CN(c1cc3c(=O)c(C(=O)O)c4n(c3cc1F)CS4)CC2	MTT	>150.1 µM
N#Cc1c(-c2ccccc2)s[nH]c1=S	MTT	13 µg/mL
CC1(C)OC2C(O1)[C@@H](COS(=O)(=O)NC(=O)OC(COCc1ccccc1)OCc1ccccc1)O[C@H]2n1ccc(=O)[nH]c1=O	-	369 µg/mL
CN1CCN(c2cc3c(=O)c(C(=O)O)c4n(c3cc2[N+](=O)[O-])CS4)CC1c1ccccc1	MTT	69.06 µM
C=C[C@]1(C)C2=C3c4c([nH]c5cccc(c45)C(C)(C)[C@H]3C[C@H]1Cl)C(C)(C)C(C#N)=C2	MTS	40.8 µM
COc1ccc(-c2snc(SC)c2C#N)cc1	-	10 µM
OC[C@H]1O[C@@H](n2nnc3c(Cl)nccc32)[C@H](O)[C@@H]1O	trypan blue	>370 µM
N#Cc1c(SCCCCSc2nsc(-c3ccccc3)c2C#N)nsc1-c1ccccc1	MTT	>4.9 µg/mL
Nc1nc2c(ncn2[C@H]2C[C@]23C[C@H]3CO)c(=O)[nH]1	-	>100 µM
CCOC(=O)c1ccc(OCCC2CCN(c3ccc(C)nn3)CC2)cc1	MTT	7 µg/mL
Nc1ccn([C@@H]2S[C@H](CO)C=C2F)c(=O)n1	-	>100 µM

Again, the opening 4 rows:

{"SMILES": "CSc1nsc(-c2cccs2)c1C#N", "result": "6 µM"}
{"SMILES": "Nc1ccn([C@H]2S[C@@H](CO)C=C2F)c(=O)n1", "result": ">100 µM"}
{"SMILES": "C=CCc1ccc(O)c(OC)c1", "result": "250 µg/mL"}
{"SMILES": "C=C[C@]1(C)C[C@@H](OC(=O)CSC(C)(C)CNC(=O)[C@H](N)CC(C)C)[C@]2(C)[C@H](C)CC[C@]3(CC/C(=N\\OC)[C@H]32)[C@@H](C)[C@@H]1O", "read by": "MTT", "result": "3.13 µg/mL"}